PubChem BioAssay AID1259414 – Drosophila RNAi Screening Center – 2018
In all, the deposit lists about 24,000 reagents; below is an unselected part of those that have a named target and a result. In the full data, about 1,210 (5%) got an active call. 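Inactive calls also include excluded dsRNAs with several or no targets, genes unexpressed in JW18, and well A1, regardless of score.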 A number with no mark means an inactive call. A plus sign joins genes that one reagent is predicted to hit.

Aim: 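Fly genes that alter Wolbachia amount inside host cells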 (primary screen)
Cell system: Drosophila JW18 cells infected with Wolbachia
Knock-down reagent: long dsRNA against Drosophila genes, 0.25 µg dsRNA per well of a 384-well plate
Timing: 5 days
Challenge: cells persistently infected with Wolbachia before knock-down; no added drug
Detection: 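Imaged fluorescence in situ signal for Wolbachia 23S rRNA per DAPI-counted host cell, given as a robust z-score within each plate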
Reading the numbers: Wolbachia per cell robust z: higher = more Wolbachia per host cell than the plate typical
Rule for the call: 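Active if absolute robust z reaches 1.5 in two or more of three replicates, leaving out multi- or no-target dsRNAs, genes unexpressed in JW18 and A1 wells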

What did the screen give for CG7985 [DRSC14128]?
Wolbachia per cell robust z, rep 1: -0.542; Wolbachia per cell robust z, rep 2: 0.508; Wolbachia per cell robust z, rep 3: -0.692

What is on record for CG13312 [DRSC09983]?
Wolbachia per cell robust z, rep 1: -2.77; Wolbachia per cell robust z, rep 2: 1.39; Wolbachia per cell robust z, rep 3: 0.652

What did the screen give for CG13312 [DRSC26729]?
Wolbachia per cell robust z, rep 1: -1.94; Wolbachia per cell robust z, rep 2: 0.0234; Wolbachia per cell robust z, rep 3: -0.687

For CG13314 [DRSC09985], what does the deposit list?
Wolbachia per cell robust z, rep 1: -0.453; Wolbachia per cell robust z, rep 2: -1.09; Wolbachia per cell robust z, rep 3: 0.673

For Sys1 [DRSC14372], how do the results read?
Wolbachia per cell robust z, rep 1: 0.326; Wolbachia per cell robust z, rep 2: 0.959; Wolbachia per cell robust z, rep 3: -4.61

With EMC7 [DRSC07162], what does the deposit list?
Wolbachia per cell robust z, rep 1: -0.0139; Wolbachia per cell robust z, rep 2: -1.81; Wolbachia per cell robust z, rep 3: -0.182

With CG15394 [DRSC00408], how do the results read?
Wolbachia per cell robust z, rep 1: -0.0383; Wolbachia per cell robust z, rep 2: -0.89; Wolbachia per cell robust z, rep 3: 1.43

With Pi3K68D [DRSC11253], what does the deposit list?
Wolbachia per cell robust z, rep 1: -1.33; Wolbachia per cell robust z, rep 2: -3.43; Wolbachia per cell robust z, rep 3: -0.326

With Pi3K68D [DRSC28860], how do the results read?
Wolbachia per cell robust z, rep 1: -0.943; Wolbachia per cell robust z, rep 2: -0.163; Wolbachia per cell robust z, rep 3: -0.228

How did the screen score CG2991 [DRSC00559]?
Wolbachia per cell robust z, rep 1: -5.87; Wolbachia per cell robust z, rep 2: -1.09; Wolbachia per cell robust z, rep 3: -0.822

With CG2991 [DRSC26300], what was measured?
Wolbachia per cell robust z, rep 1: -0.00204; Wolbachia per cell robust z, rep 2: 0.42; Wolbachia per cell robust z, rep 3: 0.0744

With Nsun5 [DRSC15835], what does the deposit list?
Wolbachia per cell robust z, rep 1: 0.703; Wolbachia per cell robust z, rep 2: 1.81; Wolbachia per cell robust z, rep 3: -1.64

For Surf1 [DRSC11295], how do the results read?
Wolbachia per cell robust z, rep 1: 0.296; Wolbachia per cell robust z, rep 2: 0.161; Wolbachia per cell robust z, rep 3: 0.382

What did the screen give for Surf1 [DRSC11394]?
Wolbachia per cell robust z, rep 1: -0.432; Wolbachia per cell robust z, rep 2: -1.83; Wolbachia per cell robust z, rep 3: 0.64

Which result is listed for CG9503 [DRSC20186]?
Wolbachia per cell robust z, rep 1: -0.0902; Wolbachia per cell robust z, rep 2: 0.389; Wolbachia per cell robust z, rep 3: 0.0199

Which result is listed for CG9503 [DRSC21766]?
Wolbachia per cell robust z, rep 1: 0.379; Wolbachia per cell robust z, rep 2: -0.284; Wolbachia per cell robust z, rep 3: -1.21

How did the screen score Nup214 [DRSC04421]?
Wolbachia per cell robust z, rep 1: 0.803; Wolbachia per cell robust z, rep 2: -1.11; Wolbachia per cell robust z, rep 3: 0.282

For Cys [DRSC16637], what does the deposit list?
Wolbachia per cell robust z, rep 1: -0.573; Wolbachia per cell robust z, rep 2: 0.00776; Wolbachia per cell robust z, rep 3: 1.08

How did the screen score Cys [DRSC27796]?
Wolbachia per cell robust z, rep 1: -1.45; Wolbachia per cell robust z, rep 2: -0.455; Wolbachia per cell robust z, rep 3: -1.38

For Dhc64C [DRSC08656], how do the results read?
Wolbachia per cell robust z, rep 1: 0.867; Wolbachia per cell robust z, rep 2: 0.802; Wolbachia per cell robust z, rep 3: 1.5

For Dhc64C [DRSC25497], how do the results read?
Wolbachia per cell robust z, rep 1: 0.0015; Wolbachia per cell robust z, rep 2: -0.304; Wolbachia per cell robust z, rep 3: 0.332

For Cph [DRSC25005], what does the deposit list?
Wolbachia per cell robust z, rep 1: 0.641; Wolbachia per cell robust z, rep 2: 0.297; Wolbachia per cell robust z, rep 3: 0.538

With Cph [DRSC37513], how do the results read?
Wolbachia per cell robust z, rep 1: -0.377; Wolbachia per cell robust z, rep 2: -1.51; Wolbachia per cell robust z, rep 3: 0.752

What did the screen give for Spn53F [DRSC06022]?
Wolbachia per cell robust z, rep 1: -0.534; Wolbachia per cell robust z, rep 2: -1.4; Wolbachia per cell robust z, rep 3: -0.898

With His1:CG33813 + His1:CG33864 + His1:CG33855 + 21 more [DRSC21266], how do the results read?
Wolbachia per cell robust z, rep 1: 0.446; Wolbachia per cell robust z, rep 2: 0.358; Wolbachia per cell robust z, rep 3: 0.403

What is on record for CG7214 [DRSC03028]?
Wolbachia per cell robust z, rep 1: 1.99; Wolbachia per cell robust z, rep 2: 1.59; Wolbachia per cell robust z, rep 3: 0.562

For CG7214 [DRSC21869], what was measured?
Wolbachia per cell robust z, rep 1: 0.113; Wolbachia per cell robust z, rep 2: 0.563; Wolbachia per cell robust z, rep 3: 0.887

With CG7214 [DRSC29482], what was measured?
Wolbachia per cell robust z, rep 1: -1.37; Wolbachia per cell robust z, rep 2: -1.5; Wolbachia per cell robust z, rep 3: -1.15

What did the screen give for IntS1 [DRSC04343]?
Wolbachia per cell robust z, rep 1: -7.15 (active); Wolbachia per cell robust z, rep 2: 0.894; Wolbachia per cell robust z, rep 3: -4.36

How did the screen score IntS1 [DRSC27942]?
Wolbachia per cell robust z, rep 1: -1.55; Wolbachia per cell robust z, rep 2: 0.729; Wolbachia per cell robust z, rep 3: -0.129

An excerpt from the list above, for reference:
Cys [DRSC27796] → Wolbachia per cell robust z, rep 1: -1.45; Wolbachia per cell robust z, rep 2: -0.455; Wolbachia per cell robust z, rep 3: -1.38
Dhc64C [DRSC08656] → Wolbachia per cell robust z, rep 1: 0.867; Wolbachia per cell robust z, rep 2: 0.802; Wolbachia per cell robust z, rep 3: 1.5
Dhc64C [DRSC25497] → Wolbachia per cell robust z, rep 1: 0.0015; Wolbachia per cell robust z, rep 2: -0.304; Wolbachia per cell robust z, rep 3: 0.332
